Values quoted from earlier work in patent US20050026235A1 (priority 2003, published 2005).

The chains behind the UniProt entries cited, without tags or fusion partners. Residues count along the entry.
UniProt P09598, 39-283 limits assumed: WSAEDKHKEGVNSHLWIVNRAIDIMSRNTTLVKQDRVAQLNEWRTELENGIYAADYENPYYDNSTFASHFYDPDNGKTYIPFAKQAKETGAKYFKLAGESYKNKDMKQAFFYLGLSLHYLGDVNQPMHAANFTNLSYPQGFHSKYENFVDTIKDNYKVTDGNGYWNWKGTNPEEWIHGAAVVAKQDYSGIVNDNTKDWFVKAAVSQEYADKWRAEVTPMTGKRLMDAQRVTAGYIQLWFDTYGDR

Target: phosphatidylcholine-specific phospholipase C (Bacillus cereus, UniProt P09598)
Conditions: tested form: K; cited from earlier work

In the case of `S=C(S)OC1CC2CC1C1CCCC21` (stereo not shown), the Ki is given as 6 µM and 13 µM to 17 µM.

For part of its entries the source gives two or more results. Only these are listed. An entry can have further records. Values given together do not match, cause unknown; dose, time, organism, isomer or construct need not be as stated for each record.
